Measurements reported in article PMC10974768 (Toxins, 2024).

Tested on: chicken liver microsomes (CYP450)
Conditions: Michaelis-Menten, PH (CYP1A2), BP (CYP2B6), CLN (CYP2E1), TBD (CYP2C9), CAN (CYP2A6), MDZ (CYP3A4), n = 3
Method: A cocktail-approach for elucidating the metabolites profiling and CYP450 inhibition was conducted as in Lin et al. with minor changes. […] Probes substrates were dissolved in methanol as stock solution (1 mg/mL). All of them were diluted to the final concentrations (see Supplemental Materials) with incubation buffer and the percentage of organic solvent in the final incubation volume was below 1% (v/v). Briefly, the mixture was preincubated in a thermoshaker (Biosan, Geraardsbergen, Belgium) for 5 min at 37 °C prior to the initiation of the reaction with NADPH.4Na. After incubation, the mixture was terminated by 400 μL ice-cold acetonitrile. […] A volume of 5 µL of supernatant was analysed using UHPLC-MS/MS.
Enzyme kinetic studies were conducted for the six CYP450-related probes reactions. For each probe, the maximum rate of the Vmax and Km were obtained using GraphPad Prism v.8.0.2 software via Michaelis-Menten Kinetic model (La Jolla, CA, USA). The incubation times of 5, 10, 15, 30, 45 and 60 min were tested individually. A series of protein concentrations (0.05, 0.1, 0.2, 0.4, 0.6, 0.8 and 1 mg/mL) of CLM in the incubation mixture were conducted. Triplicate analyses were performed for each incubation system.

For CC(NC(C)(C)C)C(=O)c1cccc(Cl)c1 (stereo not shown) [Bupropion], the Vmax was 88.9 nmol/min/mg.
